Compound potency records, mixed from different reports. Data source: NIAID ChemDB in PubChem.

All rows: toxicity to cultured cells; cells: L1210; endpoint: CC50

a–b is a range or a potency band.

{"smiles": "Nc1nc(N)nc(OC[C@H]2CC[C@@H](COc3nc(N)nc(N)n3)O2)n1", "result": ">250 µM"}
{"smiles": "Nc1nc(N)c2nc(CNc3ccc(C(=O)NC(CCCP(=O)(O)O)C(=O)O)cc3)cnc2n1", "result": "0.12 µM"}
{"smiles": "CO[C@H]1O[C@H](Cn2cc(I)c(=O)[nH]c2=O)[C@H](O)[C@H]1OCc1ccccc1F", "result": "175 µM"}
{"smiles": "N#Cc1cnn(CCCc2ccccc2)c1/N=c1\\ssnc1Cl", "result": "3 µM"}
{"smiles": "Nc1cc(OC[C@H]2CC[C@@H](CO)O2)nc(N)n1", "result": ">250 µM"}
{"smiles": "N#Cc1cnn(CCc2ccccc2)c1/N=c1\\ssnc1Cl", "result": "5 µM"}
{"smiles": "Nc1cc(OCC2O[C@H](COCc3ccccc3)[C@@H](OCc3ccccc3)[C@H]2OCc2ccccc2)nc(N)n1", "result": "18 µM"}
{"smiles": "CO/C=C(/C(=O)OC)[C@H](C)[C@@H](O)/C=C/c1ccccc1", "result": "50–100 µg/mL"}
{"smiles": "Cc1ccccc1Cn1nnc(C#N)c1/N=c1\\ssnc1Cl", "result": "7 µM"}
{"smiles": "Nc1nc(OC[C@H]2CC[C@@H](CO)O2)c2[nH]cnc2n1", "result": "≥250 µM"}
{"smiles": "CCCCC(=O)OC1CC(OC(C)C(C)C(O)C(C)C(O)C(C)C2OC(=O)/C=C/CC(O)CC(O)CC(O)CCC(C)C(O)C[C@@]3(O)O[C@H](CC(O)CC(OC(=O)CC(=O)O)CCCC(O)C4OC4C2C)C[C@H](O)[C@H]3O)OC(C)C1O", "result": ">100 µg/mL"}
{"smiles": "CO[C@H]1O[C@H](Cn2c(C)c(C)c(=O)[nH]c2=O)[C@H](O)[C@H]1OCc1ccccc1F", "result": "104 µM"}
{"smiles": "CO/C=C(/C(=O)OC)[C@H](C)C(=O)/C=C/c1ccccc1", "result": "10 µg/mL"}
{"smiles": "CO[C@H]1O[C@H](Cn2c(C)cc(=O)[nH]c2=O)[C@H](O)[C@H]1OCc1ccccc1F", "result": "≥250 µM"}
{"smiles": "N#Cc1ncn(CCc2ccccc2)c1/N=c1\\ssnc1Cl", "result": "3 µM"}
{"smiles": "Nc1nc(N)c2nc(CNc3ccc(C(=O)NC(CCP(=O)(O)O)C(=O)O)cc3)cnc2n1", "result": "0.067 µM"}
{"smiles": "c1ccc(COC[C@@H]2CC[C@H](COc3ncnc4nc[nH]c34)O2)cc1", "result": "29 µM"}
{"smiles": "N#Cc1cnn(Cc2ccccc2)c1/N=c1\\ssnc1Cl", "result": "8 µM"}

2 of the rows above, restated:

| smiles | result |
|---|---|
| Nc1nc(N)nc(OC[C@H]2CC[C@@H](COc3nc(N)nc(N)n3)O2)n1 | >250 µM |
| Nc1nc(N)c2nc(CNc3ccc(C(=O)NC(CCCP(=O)(O)O)C(=O)O)cc3)cnc2n1 | 0.12 µM |

Conditions beyond the fields shown may differ between rows. CCn: concentration that lowers growth or viability of the cells by n%.